Source: a compilation of properties of binary mixtures (doi:10.1016/j.molliq.2020.112597)

Test: xn = mol fraction of the nth substance listed
Details: 101.3 kPa, x1 = 0.19

SMILES: CCC[N+]1(C)CCCC1.N#C[N-]C#N + O=S(=O)(F)[N-]S(=O)(=O)F.[Na+]
- electrical conductivity (262.35 K): 0.3 S/m
- electrical conductivity (272.55 K): 0.49 S/m
- viscosity (282.35 K): 59.8 mPa·s
- electrical conductivity (282.75 K): 0.74 S/m
- mass density (283.05 K): 1074.3 kg/m3
- electrical conductivity (292.65 K): 1.06 S/m
- mass density (293.35 K): 1068 kg/m3
- viscosity (296.15 K): 41.8 mPa·s
- mass density (303.45 K): 1062 kg/m3
- viscosity (309.05 K): 29.9 mPa·s
- electrical conductivity (312.85 K): 1.87 S/m
- mass density (313.25 K): 1056.2 kg/m3
- viscosity (320.65 K): 22.9 mPa·s
- electrical conductivity (322.55 K): 2.39 S/m
- mass density (323.25 K): 1050.2 kg/m3
- viscosity (332.15 K): 18.2 mPa·s
- electrical conductivity (332.35 K): 2.84 S/m
- viscosity (342.35 K): 14.2 mPa·s
- mass density (343.25 K): 1037.9 kg/m3
- electrical conductivity (352.65 K): 3.98 S/m
- viscosity (352.65 K): 11.5 mPa·s
- mass density (353.45 K): 1033 kg/m3
- electrical conductivity (362.35 K): 4.54 S/m
- viscosity (362.45 K): 9.3 mPa·s
- viscosity (371.05 K): 7.8 mPa·s
- electrical conductivity (372.75 K): 5.33 S/m
- electrical conductivity (382.45 K): 5.79 S/m
- electrical conductivity (391.45 K): 6.6 S/m
